A mixed list of measured activities; the numbers were collected in NIAID ChemDB.

Common to all: tests in culture; organism: Aspergillus fumigatus

Two numbers with a dash give a range or band. MIC50, MIC90 and the like: level of inhibition, or share of isolates inhibited. ECn: concentration that inhibits the pathogen or its effect by n%. An empty or dashed field is not shown. Rows are shuffled and stem from different studies.

Cc1cc(C)c(C(=O)/C=C/c2cc3ccccc3nc2Cl)o1 ; strain or isolate: ATCC 26934 ; measure: MIC ; result: >50 µg/mL
Cc1ccc(Sc2nc3ccc(C)cc3cc2C2C(C#N)=C(N)Oc3c2c(=O)oc2ccc(C)cc32)cc1 ; strain or isolate: MTCC 3008 ; measure: MIC ; method: broth dilution ; result: >1000 µg/mL
COc1ccc(CN=C=S)cc1 ; measure: MFC ; method: broth dilution ; result: 1 µg/mL
COc1ccc(/C=C/C(=O)N2C/C(=C\c3ccccc3)C(=O)/C(=C/c3ccccc3)C2)cc1OC ; strain or isolate: 3 clinical isolates ; measure: MIC ; result: >32 µg/mL
O=[N+]([O-])c1cc(CSc2cccc[n+]2[O-])cc([N+](=O)[O-])c1 ; strain or isolate: 231 ; setting: 48 h ; measure: EC50 ; method: broth dilution ; result: >500 µM
O=C(O)c1ccccc1O ; measure: MIC100 ; method: agar ; result: 623 µg/mL
Cc1nn(-c2ccccc2)c2c1C(c1c(O)c3ccccc3oc1=O)c1c(oc3ccccc3c1=O)O2 ; measure: MFC ; method: agar diffusion / agar ; result: >100 µg/mL
COc1cc(/C=C2\SC(N(C)C)=NC2=O)cc(OC)c1OC ; strain or isolate: ATCC 26934 ; measure: MIC100 ; method: broth dilution ; result: >250 µg/mL
COc1ccc(C(=O)/C=C/c2cc3cc(OC)c(OC)cc3nc2Cl)cc1OC ; strain or isolate: ATCC 26934 ; measure: MIC ; result: >50 µg/mL
O=C(O)c1ccc(/C=C/C(=O)c2ccc([N+](=O)[O-])cc2)cc1 ; strain or isolate: 3 clinical isolates ; measure: MIC ; result: >32 µg/mL
O=C/C=C/c1ccccc1 ; strain or isolate: MTCC 2550 ; measure: MFC ; method: broth dilution ; result: 160 µg/mL
CCC(C)n1ncn(-c2ccc(N3CCN(c4ccc(OC[C@H]5CO[C@](Cn6cncn6)(c6ccc(Cl)cc6Cl)O5)cc4)CC3)cc2)c1=O ; strain or isolate: NFI 4001 ; measure: MIC ; result: 1 µg/mL
O=C1/C(=C/c2ccccc2)CN(C(=O)c2ccc(/C=C/C(=O)c3ccc(Cl)cc3)cc2)C/C1=C\c1ccccc1 ; strain or isolate: 3 clinical isolates ; measure: MIC ; result: >32 µg/mL
O=[N+]([O-])c1cc(CSc2nnnn2Cc2ccccc2)cc([N+](=O)[O-])c1 ; strain or isolate: 231 ; setting: 48 h ; measure: EC50 ; method: broth dilution ; result: >500 µM
CN(C)CCCC1(c2ccc(F)cc2)OCc2cc(C#N)ccc21 ; strain or isolate: 10 clinical isolates ; measure: MFC ; result: 312–1250 µg/mL
CCc1ccc(O)cc1 ; measure: MIC100 ; method: agar ; result: 206 µg/mL
COc1ccc(C(=O)/C=C/c2ccc(C(=O)N3C/C(=C\c4ccccc4)C(=O)/C(=C/c4ccccc4)C3)cc2)cc1 ; strain or isolate: 3 clinical isolates ; measure: MIC ; result: >32 µg/mL
O=C(/C=C/c1ccc(Cl)cc1Cl)c1ccccc1 ; strain or isolate: ATCC 26934 ; measure: MIC ; result: >50 µg/mL
Oc1cc(O)cc(O)c1 ; measure: MIC50 ; method: agar ; result: >1000 µg/mL
COc1ccc(C(=O)/C=C/c2ccc(N(C)C)cc2)cc1OC ; strain or isolate: ATCC 26934 ; measure: MIC ; result: >50 µg/mL
N=C(N)c1ccc(OCCCCCOc2ccc(C(=N)N)cc2)cc1 ; strain or isolate: 20 isolates ; measure: MFC ; result: >128 µg/mL
COc1cc2cc(/C=C/C(=O)c3ccccc3)c(Cl)nc2cc1OC ; strain or isolate: ATCC 26934 ; measure: MIC ; result: >50 µg/mL
O=c1oc2ccccc2c(O)c1C(c1c(O)c2ccccc2oc1=O)c1c[nH]c2ccccc12 ; measure: MFC ; method: agar diffusion / agar ; result: >100 µg/mL
O=C/C=C/c1ccccc1 ; strain or isolate: MTCC 2550 ; measure: MFC ; method: broth dilution ; result: 160 µg/mL
CC(=O)N1CCN(c2ccc(OC[C@H]3CO[C@](Cn4ccnc4)(c4ccc(Cl)cc4Cl)O3)cc2)CC1 ; strain or isolate: ATCC 26934 ; measure: MIC100 ; method: broth dilution ; result: 0.125 µg/mL
O=C1/C(=C/c2ccccc2)CN(C(=O)/C=C/c2ccccc2)C/C1=C\c1ccccc1 ; strain or isolate: 3 clinical isolates ; measure: MIC ; result: >32 µg/mL
COc1cc(C)ccc1O ; measure: MIC50 ; method: agar ; result: 115 µg/mL
CC[C@@H]1C[C@@]2(CC)O/C(=C\C(=O)OC)[C@@]3(CC)[C@H](CC)[C@]1(C)[C@@]23C ; setting: clinical isolate ; measure: MIC80 ; method: broth dilution ; result: 13.1 µM
Cc1ccc(C(=O)/C=C/c2ccc(C(=O)O)cc2)cc1C ; strain or isolate: 3 clinical isolates ; measure: MIC ; result: >32 µg/mL
COc1ccc(CSC#N)cc1 ; measure: MFC ; method: broth dilution ; result: 300 µg/mL
COc1ccc(C(=O)/C=C/c2cc3ccccc3nc2Cl)c(OC)c1 ; strain or isolate: ATCC 26934 ; measure: MIC ; result: >50 µg/mL
CCCCCCCCOc1ccc(-c2ccc(C(=O)NC3CC(NCCN)CNC(=O)[C@@H]4[C@@H](O)[C@@H](C)CN4C(=O)[C@@H](CO)NC(=O)[C@H]([C@H](O)Cc4ccccc4)NC(=O)[C@@H]4C[C@@H](O)CN4C(=O)[C@H]([C@@H](C)O)NC3=O)cc2)cc1 ; strain or isolate: 50 isolates ; measure: MIC ; result: 0.125 µg/mL
Cc1ccc(Sc2nc3ccccc3cc2C2C(C#N)=C(N)Oc3c2c(=O)oc2ccc(C)cc32)cc1 ; strain or isolate: MTCC 3008 ; measure: MIC ; method: broth dilution ; result: >1000 µg/mL
COc1ccc(NS(=O)(=O)c2ccc(N)cc2)nn1 ; strain or isolate: 20 isolates ; measure: Geometric mean MIC ; result: 59.4 µg/mL
CN(C)C1=NC(=O)/C(=C/c2ccc([N+](=O)[O-])cc2)S1 ; strain or isolate: ATCC 26934 ; measure: MIC100 ; method: broth dilution ; result: >250 µg/mL
CN(C/C=C/C#CC(C)(C)C)Cc1cccc2ccccc12 ; strain or isolate: NFI 0159 ; measure: MIC ; result: 2 µg/mL
Cc1cc2c(c(=O)o1)C(c1cc3ccccc3nc1Sc1ccc(Cl)cc1)C(C#N)=C(N)O2 ; strain or isolate: MTCC 3008 ; measure: MIC ; method: broth dilution ; result: >1000 µg/mL
COc1ccc(/C=C/C(=O)c2ccc(C)cc2)cc1 ; strain or isolate: ATCC 26934 ; measure: MIC ; result: >50 µg/mL
N#CSCc1ccccc1 ; measure: MFC ; method: broth dilution ; result: 150 µg/mL
CCC(C)n1ncn(-c2ccc(N3CCN(c4ccc(OC[C@H]5CO[C@](Cn6cncn6)(c6ccc(Cl)cc6Cl)O5)cc4)CC3)cc2)c1=O ; strain or isolate: 60 isolates ; measure: Geometric mean MIC ; result: 0.65 µg/mL
O=[N+]([O-])c1cc(CSc2nnnn2C2CCCCC2)cc([N+](=O)[O-])c1 ; strain or isolate: 231 ; setting: 48 h ; measure: EC50 ; method: broth dilution ; result: >500 µM
Cc1noc(NS(=O)(=O)c2ccc(N)cc2)c1C ; strain or isolate: 20 isolates ; measure: MFC ; result: >400 µg/mL
N#CCc1ccccc1 ; measure: MIC ; method: broth dilution ; result: 150 µg/mL
COc1ccc2nc(Sc3ccc(Cl)cc3)c(C3C(C#N)=C(N)Oc4c3c(=O)oc3ccccc43)cc2c1 ; strain or isolate: MTCC 3008 ; measure: MIC ; method: broth dilution ; result: 1000 µg/mL
Cc1cc(NS(=O)(=O)c2ccc(N)cc2)no1 ; strain or isolate: 20 isolates ; measure: MFC ; result: >320 µg/mL
C[C@H]1[C@H](O)[C@@H](C)/C=C/C=C/C=C/C=C/C=C/C=C/C=C/[C@H](O[C@@H]2O[C@H](C)[C@@H](O)[C@H](N)[C@@H]2O)C[C@@H]2O[C@](O)(C[C@@H](O)C[C@@H](O)CC[C@H](O)[C@@H](O)C[C@@H](O)CC(=O)O[C@H]1C)C[C@H](O)[C@H]2C(=O)O ; strain or isolate: ITCC 1634 ; measure: MIC ; method: broth dilution ; result: 1.95 µg/mL
O=[N+]([O-])c1cc(CSc2nnnn2-c2ccc(Cl)c(Cl)c2)cc([N+](=O)[O-])c1 ; strain or isolate: 231 ; setting: 48 h ; measure: EC50 ; method: broth dilution ; result: >125 µM
CCCCCOc1ccc(-c2cc(-c3ccc(C(=O)N[C@H]4C[C@@H](O)[C@@H](O)NC(=O)[C@@H]5[C@@H](O)[C@@H](C)CN5C(=O)[C@H]([C@H](O)CC(N)=O)NC(=O)[C@H]([C@H](O)[C@@H](O)c5ccc(O)c(OS(=O)(=O)O)c5)NC(=O)[C@@H]5C[C@@H](O)CN5C(=O)[C@H]([C@@H](C)O)NC4=O)cc3)no2)cc1 ; strain or isolate: TIMM0063 ; measure: MIC ; result: ≤0.0039 µg/mL

For reference, 4 entries again:

smiles	strain or isolate	setting	measure	method	result
O=[N+]([O-])c1cc(CSc2cccc[n+]2[O-])cc([N+](=O)[O-])c1	231	48 h	EC50	broth dilution	>500 µM
Oc1cc(O)cc(O)c1			MIC50	agar	>1000 µg/mL
N#CSCc1ccccc1			MFC	broth dilution	150 µg/mL
O=c1oc2ccccc2c(O)c1C(c1c(O)c2ccccc2oc1=O)c1c[nH]c2ccccc12			MFC	agar diffusion / agar	>100 µg/mL